Measured values from several laboratories, pooled; numbers as filed in NIAID ChemDB.

Common to all: growth or infection tests; organism: Mycobacterium tuberculosis

ECn is the concentration giving n% inhibition of infection, replication or growth. MIC bound comes from a single tested concentration. An empty or dashed field is not shown. MIC50, MIC90 and the like: level of inhibition, or share of isolates inhibited. Inhibition is in % at the dose shown (toxicity tests: loss of growth or viability). Rows are shuffled and stem from different studies.

structure,changes,method,tested at,strain or isolate,endpoint,cell line,result
O=C1C[C@@H]2[C@@H](c3ccccc3)[C@@H]3C(=O)c4ccccc4NC(=O)[C@H]3[C@]2(O)c2ccccc2N1,-,BACTEC,12.5 µg/mL,H37Rv,inhibition,-,0%
CCCCCCCCCCCCCCC[C@H](O)CCCCCC[C@H]1CC=CC(=O)O1,-,-,-,H37Rv,MIC,-,>128 µg/mL
c1ccc(Nc2nc(-c3ccccn3)cs2)nc1,-,visual reading,-,H37Rv,MIC,-,0.8 µM
C=CCOc1cccc(/C=C2/NC(=S)NC2=O)c1,-,BACTEC,6.25 µg/mL,H37Rv,inhibition,-,93%
CCOC(=O)C1C/C(=N\OS(=O)(=O)c2ccc(C)cc2)c2ccc(OC)c(OC)c2C1,-,resazurin,6.25 µg/mL,H37Rv,inhibition,-,-3%
C/C(=C1\NC(=S)NC1=O)c1ccccc1,-,BACTEC,-,H37Rv,EC50,-,>6.25 µg/mL
CC(C)(C)C(=O)Nc1nc(-c2ccccn2)cs1,-,visual reading,-,H37Rv,MIC,-,2.8 µM
CC(=C\c1ccccc1)/C=C1/NC(=S)NC1=O,-,BACTEC,-,H37Rv,EC50,-,<6.25 µg/mL
O=C1C=C(N2CCOCC2)c2ccccc2C1=O,-,resazurin,6.25 µg/mL,H37Rv,inhibition,-,11%
O=C1NC(=S)N/C1=C/c1ccc(-c2ccccc2)cc1,-,BACTEC,-,H37Rv,EC50,-,<6.25 µg/mL
CCNCC(=O)O[C@]1(CC)C(=O)OCc2c1cc1n(c2=O)Cc2cc3ccccc3nc2-1.Cl,-,resazurin,-,H37Rv,MIC bound,-,>6.25 µg/mL
O=C(c1cccc(Cl)c1)N1CCN(c2ccc(-c3ccno3)cc2)CC1,-,turbidity,-,BioA underexpression strain,MIC90,-,1.3 µM
CCCCCOc1cccc(NC(=O)OC(COCC)CN2CCCCC2)c1,-,-,-,My 331/88,MIC,-,16 µM
Cc1cnc(C(=O)O)c(N)n1,-,BACTEC,-,H37Rv,MIC bound,-,>12.5 µg/mL
OCCOCn1nncc1Cn1ncc2c(NCc3ccccc3)ncnc21,-,BACTEC,-,H37Rv,EC50,-,>6.25 µg/mL
O=C(Nc1nc(-c2ccc(Br)s2)cs1)c1cc(-c2cccs2)nc2ccccc12,-,fluorescence,-,H37Rv,MIC,-,>6.25 µg/mL
CC(=O)NS(=O)(=O)c1ccc(NC(=O)c2ccccc2C(=O)O)cc1,-,BACTEC,-,H37Rv,MIC bound,-,>128 µg/mL
Cc1noc(-c2ccc(N3CCN(C(=O)c4cccc(Cl)c4)CC3)cc2)n1,-,turbidity,-,Wild type without biotin,MIC50,-,>50 µM
CCCCCCOc1ccccc1NC(=O)OCCN1CCCCC1,-,-,-,My 331/88,MIC,-,32 µM
NNC(=O)c1ccccc1SSc1ccccc1C(=O)NN,-,-,-,PAS-R,MIC,-,>12.5 µg/mL
NC[C@H]1O[C@H](O[C@H]2[C@H](O)[C@@H](O[C@H]3O[C@H](CO)[C@@H](O)[C@H](N)[C@H]3O)[C@H](N)C[C@@H]2N)[C@H](O)[C@@H](O)[C@@H]1O,-,-,-,90-0233 (INH SM-RS),MIC,-,4 µg/mL
COc1ncnc2c1cnn2Cc1cnnn1COCCO,-,BACTEC,-,H37Rv,EC50,-,>12.5 µg/mL
O=C(Nc1nc(-c2ccc(Br)s2)cs1)c1cc(-c2ccc(-c3ccc([N+](=O)[O-])s3)s2)nc2ccccc12,-,fluorescence,-,H37Rv,MIC,-,6.25 µg/mL
O=C1NC(=S)N/C1=C/c1cccc(OCc2ccc(Cl)cc2)c1,-,BACTEC,6.25 µg/mL,H37Rv,inhibition,-,95%
C[N+](C)(C)C(=O)Nc1nc(-c2ccccn2)cs1,-,visual reading,-,H37Rv,MIC,-,>20 µM
CCCCCCCOc1ccccc1NC(=O)OCCN1CCCCC1,-,-,-,My 331/88,MIC,-,16 µM
Cc1ccc(NC(=O)c2cc(/C=C/c3cccs3)nc3ccc(C)cc23)cc1,-,fluorescence,-,H37Rv,MIC,-,>6.25 µg/mL
Nc1ncnc2c1cnn2Cc1cnnn1COCCO,-,BACTEC,-,H37Rv,EC50,-,>12.5 µg/mL
Nc1ccc(-c2cc(C(=O)O)c3ccccc3n2)cc1,-,fluorescence,-,H37Rv,MIC,-,6.25 µg/mL
COc1ccc2[nH]c3c(C)c4ccn5c(=O)c6ccccc6cc5c4c(C)c3c2c1,-,BACTEC,-,H37Rv,MIC bound,-,>12.5 µg/mL
CCCCCCCCCCCCCCC[C@@H]1CC=CC(=O)O1,-,fluorescence,128 µg/mL,H37Rv,inhibition,-,66.3%
CCCCCOc1ccccc1NC(=O)OC(C)CN1CCCCC1,-,-,-,My 331/88,MIC,-,62.5 µM
CC1=C(C)C23Cn4c(=O)n(-c5ccccc5)c(=O)n4[C@]2(C)C1(C)[C@@H]3C,-,resazurin,6.25 µg/mL,H37Rv,inhibition,-,11%
O=[N+]([O-])c1cn2c(n1)OC[C@@H](OCc1ccc(OCc3ccccc3)cc1)C2,-,-,-,H37Rv-T3-Fgd1 (PA-824-resistant),MIC,-,0.2 µM
C[C@@H]1OC(O[C@H]2C(O[C@H]3CC[C@@]4(C)C(CC[C@]5(C)C4CC=C4C6CC(C)(C)CC[C@]6(C(=O)O)CC[C@]45C)[C@]3(C)CO)OC[C@H](O)[C@@H]2O)[C@H](O)[C@H](OO[C@@H]2O[C@H](CO)[C@H](O)[C@H]2O)[C@H]1O,-,-,-,H37Rv,MIC,-,>1000 µg/mL
CC[C@H]1OC(=O)[C@H](C)[C@@H](O[C@H]2C[C@@](C)(OC)[C@@H](O)[C@H](C)O2)[C@H](C)[C@@H](O[C@@H]2O[C@H](C)C[C@H](N(C)C)[C@H]2O)[C@](C)(OC)C[C@@H](C)C(=O)[C@H](C)[C@@H](O)[C@]1(C)O,-,-,-,90-0216 (drug-susceptible),MIC,-,5 µg/mL
Cc1cn([C@H]2C[C@H](CN)[C@@H](CO)O2)c(=O)[nH]c1=O,-,-,-,H37Rv,MIC,-,>6.25 µg/mL
CCCCCCCCCCCCCCC[C@H](O)CCCC[C@H](O)C[C@H]1CC=CC(=O)O1,-,fluorescence,128 µg/mL,H37Rv,inhibition,VERO,97.4%
CNc1ncnc2c1cnn2Cc1cn(COCCO)nn1,-,BACTEC,-,H37Rv,EC50,-,>12.5 µg/mL
Cc1ccc(Nc2ccc(Nc3ccc(C)cc3)c3c2C(=O)c2cc(Cl)c(Cl)cc2C3=O)cc1,-,BACTEC,-,H37Rv,MIC bound,-,>12.5 µg/mL
CCCCCCCCCCCCCCC[C@H]1CC=CC(=O)N1,-,fluorescence,128 µg/mL,H37Rv,inhibition,-,74.7%
O=C1NC(=S)N/C1=C/c1cccc(C(F)(F)F)c1,-,BACTEC,6.25 µg/mL,H37Rv,inhibition,-,42%
COc1cc(C)cc2c1c(-c1ccc(O)cc1)[n+]1n2CCCC1.[OH-],-,agar,-,H37Rv,MIC,-,250 µg/mL
CC(=O)c1ccc(N2CCN(C(=O)CC(C)C)CC2)cc1,-,turbidity,-,Wild type without biotin,MIC50,-,>50 µM
CCCCCCOc1ccccc1NC(=O)OC(C)CN1CCCCC1,-,-,-,My 331/88,MIC,-,16 µM
NNC(=O)c1cc(-c2cccs2)nc2ccccc12,-,fluorescence,-,H37Rv,MIC,-,>6.25 µg/mL
CSc1ncnc2c1cnn2Cc1cn(COCCO)nn1,-,BACTEC,-,H37Rv,EC50,-,>12.5 µg/mL
S=C(S)N1CCCCC1,-,BACTEC,-,H37Rv,MIC bound,-,≤12.5 µg/mL
CCCCCCCCCCCCCCC[C@H](O)CC[C@H]1CC=CC(=O)O1,-,fluorescence,128 µg/mL,H37Rv,inhibition,-,79.1%
CC(=O)c1ccc(N2CCN(C(=O)c3ccc4c(c3)OCCCO4)CC2)cc1,-,turbidity,-,BioA overexpression strain,MIC50,-,>50 µM
O=C(CO)Nc1nc(-c2ccccn2)cs1,-,visual reading,-,H37Rv,MIC,-,>20 µM
CCCCCCOc1ccc(NC(=O)OCCN2CCCCC2)cc1,-,-,-,My 331/88,MIC,-,32 µM
O=C(O)c1cccc2cccc(-c3c4ccc(=O)cc-4oc4cc(O)ccc34)c12,-,BACTEC,-,H37Rv,MIC bound,-,>12.5 µg/mL
CCCCCCCCCCCCCCC[C@H](O)CCCC[C@H]1CC=CC(=O)O1,-,-,-,H37Rv,MIC,-,24.08 µg/mL
O=C1NC(=S)N/C1=C/c1ccccc1Cl,-,BACTEC,6.25 µg/mL,H37Rv,inhibition,-,20%
CCC1Cn2cc([N+](=O)[O-])nc2O1,-,-,-,H37Rv-5A2 (PA-824-resistant),MIC,-,>100 µM
CCOC(=O)C(Cc1ccccc1)NP(=O)(CCC(=O)N1C[C@H](OCC(O)P(=O)(NC(Cc2ccccc2)C(=O)OCC)NC(Cc2ccccc2)C(=O)OCC)[C@H](n2cnc3c(=O)[nH]c(N)nc32)C1)NC(Cc1ccccc1)C(=O)OCC,-,resazurin / fluorescence,-,H37Ra,MIC90,-,20 µM
CCCCCCCCCCCCCCC[C@H](O)CC[C@H](O)C[C@H]1CC=CC(=O)O1,-,fluorescence,128 µg/mL,H37Rv,inhibition,-,84.3%
COc1cc2c3c(c1OC)-c1c(ccc(O)c1O)C[C@@H]3[N+](C)(C)CC2.[OH-],-,agar,-,H37Rv,MIC,-,250 µg/mL
COc1ccc2c(c1)[n+]([O-])c(-c1ccccc1)c(N)[n+]2[O-],-,BACTEC,12.5 µg/mL,H37Rv,inhibition,-,100%
C[C@@H]1CN(c2c(F)c(N)c3c(=O)c(C(=O)O)cn(C4CC4)c3c2F)C[C@H](C)N1,-,-,-,H37Rv,MBC,-,0.2 µg/mL
O=C1CCc2cc(N3CCN(C(=O)c4ccc5c(c4)OCO5)CC3)ccc21,-,turbidity,-,BioA underexpression strain,MIC90,-,0.8 µM
CSC(=S)n1nc(-c2ccccc2)c(N=Nc2ccc(Br)cc2)c1C,-,BACTEC,-,H37Rv,MIC bound,-,≤128 µg/mL
CC(=O)c1ccc(-c2cn(Cc3cccc(Cl)c3)nn2)s1,-,turbidity,-,BioA underexpression strain,MIC50,-,>50 µM
CCCCCCCOc1cccc(NC(=O)OCCN2CCCCC2)c1,-,-,-,My 331/88,MIC,-,8 µM
CC1COc2c(N3CCN(C)CC3)c(F)cc3c(=O)c(C(=O)O)cn1c23,-,-,-,92-0492 MDR (INH RIF-resistant),MIC,-,1 µg/mL
O=C1NC(=S)N/C1=C/c1cccc(O)c1,-,BACTEC,-,H37Rv,EC50,-,>6.25 µg/mL
CN(C)N=Nc1cn([C@@H]2O[C@H](CO)[C@@H](O)[C@H]2O)c(=O)[nH]c1=O,-,BACTEC,6.25 µg/mL,H37Rv,inhibition,-,0%
CCCCCCCCCCCCCCC[C@H](O)C[C@H](O)C[C@H](O)C[C@H]1CC=CC(=O)O1,-,fluorescence,128 µg/mL,H37Rv,inhibition,VERO,81.7%
OC[C@H]1O[C@@H](n2cnc3cc(Cl)c(Cl)cc32)C[C@@H]1O,-,resazurin,6.25 µg/mL,-,inhibition,-,-5%
COc1ccccc1-c1csc(Nc2ccccc2C(F)(F)F)n1,-,visual reading,-,H37Rv,MIC,-,>20 µM
CCc1cc(C(N)=S)ccn1,-,-,-,90-0233 (INH SM-RS),MIC,-,0.25 µg/mL
O=C(Nc1cc2c(=O)[nH]c3ccccc3c2oc1=O)c1cnccn1,-,BACTEC,-,H37Rv,MIC bound,-,>6.25 µg/mL
C[C@@H]1CN(c2c(F)c(N)c3c(=O)c(C(=O)O)cn(C4CC4)c3c2F)C[C@H](C)N1,-,-,-,H37Rv,MIC,-,0.2 µg/mL
COc1cc2c(c3c1c(=O)c1ccccc1n3C)C=CC(C)(C)O2,-,BACTEC,-,H37Rv,MIC,-,>4 µg/mL
CC(C)=CCOc1c2ccoc2cc2oc(=O)ccc12,Isoniazid-resistant,resazurin,-,H37Rv clinical isolate CRY7,MIC100,-,200 µg/mL
FC(F)(F)c1ccccc1Nc1nc(-c2ccccn2)cs1,-,visual reading,-,H37Rv,MIC,-,11 µM
CN1Cc2cc(N3CCN(C(=O)c4cccc(Cl)c4)CC3)ccc2C1=O,-,turbidity,-,BioA overexpression strain,MIC50,-,>50 µM
N=NC(=O)c1ccccc1Nc1c(O)[nH]c2ccccc12,-,BACTEC,-,H37Rv,MIC bound,-,>12.5 µg/mL
NNC(=O)c1cc(/C=C/c2ccc(-c3ccc([N+](=O)[O-])s3)s2)nc2ccccc12,-,fluorescence,-,H37Rv,MIC,-,3.125 µg/mL
CC(=O)c1ccc(N2CCN(C(=O)c3cscn3)CC2)cc1,-,turbidity,-,BioA underexpression strain,MIC50,-,>50 µM
NNC(=O)c1cc(-c2ccc(-c3cccs3)s2)nc2ccccc12,-,fluorescence,-,H37Rv,MIC,-,>6.25 µg/mL
NNC(=O)c1n[nH]n(N)c1=S,-,BACTEC,12.5 µg/mL,H37Rv,inhibition,-,99%
Sc1ccccc1-c1csc(Nc2ccccn2)n1,-,visual reading,-,H37Rv,MIC,-,>20 µM